{
  "source": "paper PMC6028965",
  "about": "“Mechanism of vaccinia viral protein B14–mediated inhibition of IκB kinase β activation” (2018)",
  "key": {"[1]": {"target": "T1, GST-IKKβ-ULD-SDD M4 mutant (residues 408–416 replaced with GGGGS), human (UniProt O14920)", "T1 sequence": "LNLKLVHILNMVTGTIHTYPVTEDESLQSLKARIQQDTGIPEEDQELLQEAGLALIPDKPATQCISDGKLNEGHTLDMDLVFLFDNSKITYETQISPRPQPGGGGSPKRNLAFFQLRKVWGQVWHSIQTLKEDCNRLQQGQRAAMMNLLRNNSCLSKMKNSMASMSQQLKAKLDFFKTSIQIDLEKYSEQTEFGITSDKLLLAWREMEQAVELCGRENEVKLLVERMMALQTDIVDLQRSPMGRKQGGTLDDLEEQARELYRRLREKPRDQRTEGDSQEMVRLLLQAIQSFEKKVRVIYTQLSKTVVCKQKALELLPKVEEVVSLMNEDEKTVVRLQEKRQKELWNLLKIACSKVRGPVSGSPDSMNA", "test": "pull-down"}, "[2]": {"target": "T2, GST-IKKβ-ULD-SDD (residues 307–678 of human IKKβ), human, O14920 307-678", "T2 sequence": "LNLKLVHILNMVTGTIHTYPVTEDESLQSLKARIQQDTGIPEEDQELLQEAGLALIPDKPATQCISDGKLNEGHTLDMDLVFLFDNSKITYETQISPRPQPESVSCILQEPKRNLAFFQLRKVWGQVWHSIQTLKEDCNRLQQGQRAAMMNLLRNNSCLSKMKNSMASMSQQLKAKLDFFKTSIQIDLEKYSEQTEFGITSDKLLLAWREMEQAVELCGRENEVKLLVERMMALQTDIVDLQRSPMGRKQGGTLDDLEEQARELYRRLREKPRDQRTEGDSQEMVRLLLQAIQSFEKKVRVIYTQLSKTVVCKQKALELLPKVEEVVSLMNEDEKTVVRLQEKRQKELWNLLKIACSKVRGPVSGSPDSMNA", "test": "pull-down"}},
  "data": [
    {"substance": "untagged B14 protein", "values": [
      {"measurement": "decrease in binding relative to the WT construct", "setting": "[1]", "value": 60, "unit": "%"},
      {"measurement": "result", "setting": "[2]", "value": "binds"}
    ]}
  ]
}
